Here are results for three compounds from article PMC10779311, “Antileishmanial Activity, Toxicity and Mechanism of Action of Complexes of Sodium Usnate with Lanthanide Ions: Eu(III), Sm(III), Gd(III), Nd(III), La(III) and Tb(III)” (International Journal of Molecular Sciences, 2023).

The structures appear in SMILES notation.

Data set [1] has as its system NIH/3T3 fibroblasts. Description: Cytotoxicity in mammalian cells (sulforhodamine B). The following applies: IC50 in NIH/3T3 fibroblasts/IC50 on intracellular amastigotes. The class given is cell-based. The protocol: The cytotoxic effect of compounds 1–7 was evaluated on NIH/3T3 fibroblasts obtained from the Rio de Janeiro Cell Bank (Duque de Caxias, Brazil). Fibroblasts were seeded at […] in 96-well plates. After 24 h of fixation, cells were incubated for 48 h with 1–7 at 2.5–250 µg·mL^−1, in three replicates. Cell growth was evaluated using the sulforhodamine B colorimetric method, and the optical with absorbances read on the PT-READER microplate instrument (Spectramax 190, Molecular Devices, Sunnyvale, CA, USA) at 540 nm. […] The growth inhibition percentage-GI (%) of each test sample was calculated in Microsoft Office Excel 2007 software. IC50 was determined graphically in the Microcal Origin Version 6.00 program. The selectivity index (SI) was calculated as the ratio between the cytotoxicity on cells (IC50) and the activity on the parasite forms (IC50).

For data set [2], the system named is L. (L.) amazonensis promastigote forms. Description: In vitro antileishmanial activity on promastigote forms (MTT). The class given is cell-based, Leishmania (Leishmania) amazonensis. The following applies: ratio of IC50 values.

On to `CC(=O)C1=C([O-])C=C2Oc3c(C(C)=O)c(O)c(C)c(O)c3C2(C)C1=O.CC(=O)C1=C([O-])C=C2Oc3c(C(C)=O)c(O)c(C)c(O)c3C2(C)C1=O.CC(=O)C1=C([O-])C=C2Oc3c(C(C)=O)c(O)c(C)c(O)c3C2(C)C1=O.O.O.O.[Eu+3]` (stereo not shown) [EuL3·3H2O 4], for which the “SI (Ama.)” value in data set [1] (listed as EuL3·3H2O) is given as “approximately 7.0”. Turning to `CC(=O)C1=C([O-])C=C2Oc3c(C(C)=O)c(O)c(C)c(O)c3C2(C)C1=O.CC(=O)C1=C([O-])C=C2Oc3c(C(C)=O)c(O)c(C)c(O)c3C2(C)C1=O.CC(=O)C1=C([O-])C=C2Oc3c(C(C)=O)c(O)c(C)c(O)c3C2(C)C1=O.O.O.O.[Nd+3]` (stereo not shown) [NdL3·3H2O 5], the “SI (Ama.)” value in data set [1] (listed as NdL3·3H2O) was “approximately 7.0”. Consider `CC(=O)C1=C([O-])C=C2Oc3c(C(C)=O)c(O)c(C)c(O)c3C2(C)C1=O.CC(=O)C1=C([O-])C=C2Oc3c(C(C)=O)c(O)c(C)c(O)c3C2(C)C1=O.CC(=O)C1=C([O-])C=C2Oc3c(C(C)=O)c(O)c(C)c(O)c3C2(C)C1=O.O.O.[Tb+3]` (stereo not shown) [TbL3·2H2O 6], for which, in data set [2], the “activity on promastigotes, times higher than SAU 1” value is “almost a thousand times higher” and the “activity on promastigotes, times higher than amphotericin B” value was 63 times.
